Values quoted from earlier work as cited in publication PMC2742502 (Journal of immunology (Baltimore, Md. : 1950), 2008).

System: T cells from healthy donors
Conditions: HLA-A0201 restricted, ref M. Wolfl, unpublished data; cited from earlier work

For “HIVgagp17 76–84: HLA-A0201 restricted epitope (SLYNTVATL; Matrix protein p17; UniProt P04591 77-85, looked up, fragment)”, the “induction of T cell responses” value is given as “able to induce T-cell responses against this epitope”.
